From patent US20230234994A1, “Vasopressin-2 receptor antagonist peptides and uses thereof” (published 2023)

How the values were obtained:
Test in all cases: cell-based or functional assay
Caspase 6 (Human) = Caspase 6 (Human) (UniProt P55212)
Tryptase gamma 1 (Human) = Tryptase gamma 1 (Human) (UniProt Q9NRR2)
Elastase (Human) = Elastase (Human) (UniProt P08246)

Measured: Compound IC50 (M), protease activity assay

WT MQ1 peptide (prior art)
> 5e-05 M: Caspase 6 (Human) | Tryptase gamma 1 (Human) | Elastase (Human)
